In patent US20240199647A1, “ANTI-VIRAL COMPOUNDS” (Aligos Therapeutics, Inc., priority 2022, published 2024):

Columns and labels:
[1] = system: HeLa human cervical epithelial cells; assay: Cytotoxicity in HeLa cells without addition of OC43 virus (in parallel); conditions: Table B, class symbols
Experimental: (§1) HeLa human cervical epithelial cells (ATCC) were used as susceptible host cell lines and were cultured using EMEM media, supplemented with 10% fetal bovine serum (FBS), 1% (v/v) penicillin/streptomycin (P/S), 1% (v/v) HEPES and 1% (v/v) Cellgro Glutagro™ supplement (all Corning, Manassas, VA) at 37° C. For the OC43 antiviral assay, 1.5×10^4 HeLa cells per well were plated in 100 μL complete media in white 96-well plates with clear bottoms at 37° C. for up to 24 h to facilitate attachment and allow cells to recover from seeding stresses. Next day, the cell culture medium was removed. Serially diluted compounds in 100 μL assay media (EMEM, 2% FBS, 1% P/S, 1% Cellgro Glutagro™ supplement, 1% HEPES) were added to the cells and incubated for 4 h at 37° C. in a humidified 5% CO2 incubator. […] 96-well plates were incubated for 6 days at 33° C.; each plate contains uninfected control wells as well as virus-infected wells that were not treated with compound. Cytotoxicity plates without the addition of OC43 virus were carried out in parallel. At the end of the incubation period, 100 μL cell culture supernatant was replaced with 100 μL cell-titer-glo reagent (Promega, Madison, WI) and incubated for at least 10 min at rt prior to measuring luminescence. Luminescence was measured on a Perkin Elmer (Waltham, MA) Envision plate reader. […]

SARS-Cov-2 3CLpro = SARS-Cov-2 3CLpro (Severe acute respiratory syndrome coronavirus 2, UniProt P0DTD1); conditions: read-out: SARS-Cov-2 (IC50), Table A, class symbols
[2] = system: SARS-CoV-2 B.1.1.7 lineage; assay: B.1.1.7 Infection Model in A549-Dual ACE2 TMPRSS2 Cells (antiviral, CPE, MTS); conditions: read-out: A549-dual_ACE2_TMPRSS2 (EC50); Table C; SARS-CoV-2 B.1.1.7 in A549-dual_ACE2_TMPRSS2 cells, class symbols
Experimental: B.1.1.7 Infection Model in A549-Dual ACE2 TMPRSS2 Cells
The A549-dual_ACE2_TMPRSS2 cells (InvivoGen Cat #a-49-cov2r) were propagated in the growth medium which was prepared by supplementing DMEM (gibco cat no 41965-039) with 10% v/v heat-inactivated FCS and 10 μg/mL blasticidin (InvivoGen ant-b1-05), 100 μg/mL hygromycin (InvivoGen ant-hg-1), 0.5 μg/mL puromycin (InvivoGen ant-pr-1) and 100 μg/mL zeocin (InvivoGen ant-zn-05) in a humidified 5% CO2 incubator at 37° C. The assay medium was prepared by supplementing DMEM (gibco cat no 41965-039) with 2% v/v heat-inactivated FCS.
The virus isolate used is from the B.1.1.7 lineage (derived from hCoV-19/Belgium/rega-12211513/2020; EPI_ISL_791333,2020-12-21; see Abdelnabi et al., “Comparing infectivity and virulence of emerging SARS-CoV-2 variants in Syrian hamsters” EBioMedicine (2021) June; 68:103403. doi: 10.1016/j.ebiom.2021.103403).
For antiviral testing, cells were seeded in 96-well plates (Falcon) at a density of 15,000 cells per well in assay medium. After overnight growth, cells were treated with the indicated compound concentrations and infected with a MOI of 0.001 TCID50/cell (final volume 200 μL/well in assay medium). On day 4p.i. differences in cell viability caused by virus-induced CPE or by compound-specific side effects are analyzed using MTS as described previously (PMID: 22575574). […]

[3] = system: human beta-coronavirus OC43; assay: OC43 Coronavirus Assay in HeLa cells (antiviral, cytopathic effect, cell-titer-glo); conditions: Table B, class symbols
Experimental: as §1, with “OC43 Coronavirus Assay in HeLa cells […] HeLa human” for “HeLa human”

CN(C(=O)[C@H](CC1CC1)NS(=O)(=O)C1CC1)[C@@H](CC1CC1)C(=O)N1C[C@@]2(C[C@H]1C#N)Oc1cc(F)cc(F)c1NC2=O
CC50 [1]: > 10000 nM
IC50 (SARS-Cov-2 3CLpro): < 20 nM
EC50 [2]: < 100 nM
EC50 [3]: 1000 to 10000 nM
